The record followed here is PubChem BioAssay AID2318 (National Center for Advancing Translational Sciences (NCATS), 2010).

This assay can be described thus: Cycloheximide Counterscreen for Small Molecule Inhibitors of Shiga Toxin (Confirmatory). Also: 0% is about no effect. Particulars: protein synthesis reporter, Shiga toxin assay; at 38.3 µM (top of the series). For orientation: The purpose of a counterscreen is to sort out artefacts and off-target activity.

This is a selection; strong and weak results do not stand in their true shares. Inconclusive results are not listed. The source made the active and inactive calls. Calls follow the shape of the full dose curve.

Turning to `O=[N+]([O-])c1cc([N+](=O)[O-])c(-c2ccn[nH]2)s1`, the activity (activation) is inactive: -3.03%.
